Results of unrelated studies side by side (data: NIAID ChemDB).

Common to all: tests in culture; species: HIV-1; measure: EC50

a–b is a range or a potency band.

| smiles | strain | method | changes | cells | value |
|---|---|---|---|---|---|
| CC(C)(C)OC(=O)N1C2C3(CO)C(c4ccccc4)C4(CO)C1C1(CO)C(c5ccccc5)C2(CO)C3N(C(=O)OC(C)(C)C)C41 | IIIB | cytopathic effect / MTT | - | MT-4 | >0.083 µM |
| COc1ccc(C(=O)/C=C/c2ccc(Br)cc2)c(O)c1 | IIIB | MTT | - | MT-4 | >400 µM |
| CC(C)C1=C2[C@H]3CC[C@@H]4[C@@]5(C)CC[C@H](OC(=O)[C@H]6C[C@@H](C(=O)O)C6(C)C)C(C)(C)[C@@H]5CC[C@@]4(C)[C@]3(C)CC[C@@]2([C@@H](O)CNC(=O)C(C)(CN)NC(=O)c2ccc(Cl)cc2)CC1=O | 92HT599 | p24 / ELISA | - | MT-2 | <1 µM |
| Cc1cn([C@H]2C[C@H](N=[N+]=[N-])[C@@H](CO)O2)c(=O)[nH]c1=O | IIIB | MTT | - | MT-4 | 0.026 µM |
| O=C1Nc2ccc(Cl)cc2[C@@](C#CC2CC2)(C(F)(F)F)[C@H]1OCc1cccnc1 | RF | - | - | MT-2 | <0.02 µM |
| C=C1C[C@@]23CC[C@@H]4C(C)(C)[C@H](O)CC[C@@]4(C)[C@@H]2C[C@@H]1[C@@H](O)C3=O | - | MTT | - | MT-4 | >25 µg/mL |
| COc1ccc(C(=O)/C=C/c2ccc(O)cc2)c(O)c1 | IIIB | MTT | - | MT-4 | >400 µM |
| C=C[C@@H](O)C1=C[C@@H](n2cnc3c(N)ncnc32)[C@H](O)[C@@H]1O | - | cytopathic effect | - | CEM | >40 µg/mL |
| O=C(/C=C/c1ccccc1)c1ccccc1O | IIIB | MTT | - | MT-4 | >400 µM |
| C=C[C@H](O)C1=C[C@@H](n2cnc3c(N)ncnc32)[C@H](O)[C@@H]1O | - | cytopathic effect | - | CEM | >200 µg/mL |
| CC(C)C1=C2[C@H]3CC[C@@H]4[C@@]5(C)CC[C@H](OC(=O)[C@H]6C[C@@H](C(=O)O)C6(C)C)C(C)(C)[C@@H]5CC[C@@]4(C)[C@]3(C)CC[C@@]2(CCNCc2ccc3c(c2)OCO3)CC1=O | 92HT599 | p24 / ELISA | - | MT-2 | <1 µM |
| COCCCCCCCCCCCC(=O)O | - | cytopathic effect / MTT | - | CEM | 1–5 µM |
| CCCCCCCCCCCCCC(=O)NCC(OCC)OCC | LAV | - | - | MT-4 | <10 µM |
| COc1cc2c(c(OC)c1O)-c1c(cc(O)c(OC)c1OC)C[C@@H](C)[C@@H](C)C2 | - | MTT | - | C8166 | 1.8 µg/mL |
| C=C1C[C@@]23CC[C@@H]4[C@@H](C)[C@H](O)CC[C@@]4(C)[C@@H]2C[C@@H]1[C@@H](O)C3=O | - | MTT | - | MT-4 | >25 µg/mL |
| O=C1Nc2ccc(Cl)cc2[C@@](C#CC2CC2)(C(F)(F)F)[C@H]1OCc1ccncc1 | - | - | RT-L100I | MT-2 | <0.023 µM |
| C#C[C@H](O)C1=C[C@@H](n2cnc3c(N)ncnc32)[C@H](O)[C@@H]1O | - | cytopathic effect | - | CEM | >40 µg/mL |
| C=CC1C[C@@]23CC[C@H](C(C)(C)O)[C@@](C)(CCC(=O)OC)[C@@H]2C[C@@H]1[C@@H](O)C3=O | - | MTT | - | MT-4 | >25 µg/mL |
| O=C(/C=C/c1ccc(F)cc1)c1ccccc1O | IIIB | MTT | - | MT-4 | >400 µM |
| CC1(C)C(=O)C=C[C@]2(C)[C@@H]1CC[C@@]13CC[C@@H](C[C@H]12)[C@](O)(CO)C3 | - | MTT | - | MT-4 | >25 µg/mL |
| CC(C)C1=C2[C@H]3CC[C@@H]4[C@@]5(C)CC[C@H](OC(=O)[C@@H]6C[C@H](C(=O)O)C6(C)C)C(C)(C)[C@@H]5CC[C@@]4(C)[C@]3(C)CC[C@@]2([C@@H](O)CN(CCN(C)C)C(=O)c2ccc(Cl)cc2)CC1=O | 92HT599 | p24 / ELISA | - | MT-2 | <1 µM |
| CC(C)CN(C[C@@H](O)[C@H](Cc1ccccc1)NC(=O)O[C@H]1CO[C@H]2OCC[C@H]21)S(=O)(=O)c1ccc(C(=O)O)cc1 | LAI | p24 / luminescence | - | MT-2 | 1 µM |
| C=CC1C[C@@]23CCC4=C(C)C(=O)CC[C@@]4(C)[C@@H]2C[C@@H]1[C@@H](O)C3=O | - | MTT | - | MT-4 | >25 µg/mL |
| [2H]C(CN)(CNC(=O)c1ccc(Cl)cc1)NC(=O)C[C@@]12CC[C@]3(C)[C@H](CC[C@@H]4[C@@]5(C)CC[C@H](OC(=O)[C@H]6C[C@@H](C(=O)O)C6(C)C)C(C)(C)[C@@H]5CC[C@]43C)C1=C(C(C)C)C(=O)C2 | 92HT599 | p24 / ELISA | - | MT-2 | <1 µM |
| CC1(C)C=Cc2c(c3c(c4ccc(=O)oc24)OC(C)(C)C=C3)O1 | IIIB | MTT | - | MT-4 | >41 µM |
| CC(C)C1=C2[C@H]3CC[C@@H]4[C@@]5(C)CC[C@H](OC(=O)[C@H]6C[C@@H](C(=O)O)C6(C)C)C(C)(C)[C@@H]5CC[C@@]4(C)[C@]3(C)CC[C@@]2([C@@H](O)CNC(=O)c2ccc(CN3CCOCC3)cc2)CC1=O | 92HT599 | p24 / ELISA | - | MT-2 | <1 µM |
| COc1ccc(/C=C2/C(=O)C(c3ccccc3)N(c3ccccc3)C2=O)cc1OC | - | cytopathic effect / XTT | - | CEM + CEM-SS | <200 µM |
| CC(C)C1=C2[C@H]3CC[C@@H]4[C@@]5(C)CC[C@H](OC(=O)[C@H]6C[C@@H](C(=O)O)C6(C)C)C(C)(C)[C@@H]5CC[C@@]4(C)[C@]3(C)CC[C@@]2([C@@H](O)CNCC(C)(C)NC(=O)c2ccc(O[C@H]3CCOC3)cc2)CC1=O | 92HT599 | p24 / ELISA | - | MT-2 | <1 µM |
| Nc1[nH]c(=S)nc2c1C(c1ccc([N+](=O)[O-])cc1)c1c([nH]c(=S)[nH]c1=O)O2 | - | p24 | - | MT-4 | <5 µg/mL |
| O=C1Nc2ccc(Cl)cc2[C@@](C#CC2CC2)(C(F)(F)F)[C@H]1OCc1ccccc1 | RF | - | - | MT-2 | <0.071 µM |

The last 4 rows once more:

COc1ccc(/C=C2/C(=O)C(c3ccccc3)N(c3ccccc3)C2=O)cc1OC ; method: cytopathic effect / XTT ; cells: CEM + CEM-SS ; value: <200 µM
CC(C)C1=C2[C@H]3CC[C@@H]4[C@@]5(C)CC[C@H](OC(=O)[C@H]6C[C@@H](C(=O)O)C6(C)C)C(C)(C)[C@@H]5CC[C@@]4(C)[C@]3(C)CC[C@@]2([C@@H](O)CNCC(C)(C)NC(=O)c2ccc(O[C@H]3CCOC3)cc2)CC1=O ; strain: 92HT599 ; method: p24 / ELISA ; cells: MT-2 ; value: <1 µM
Nc1[nH]c(=S)nc2c1C(c1ccc([N+](=O)[O-])cc1)c1c([nH]c(=S)[nH]c1=O)O2 ; method: p24 ; cells: MT-4 ; value: <5 µg/mL
O=C1Nc2ccc(Cl)cc2[C@@](C#CC2CC2)(C(F)(F)F)[C@H]1OCc1ccccc1 ; strain: RF ; cells: MT-2 ; value: <0.071 µM

Rows are shuffled and stem from different studies. Blank or dashed fields: not listed here. ECn is the concentration giving n% inhibition of infection, replication or growth.